Results on six molecules are retold here after the supplement of paper PMC9931576.

B1: BD-756 (protein)
chain 1: QVQLVQSGAEVRKPGSSVKVSCKTSGGTFSSNSISWVRQAPGQGLEWMGNFIPILGIANYAQNFQGRVTITADKSTSTAYMELSSLRSEDTAVFYCARVSYDSSGWGAAFDIWGQGTMVTVSS
chain 2: QSVLTQPPSVSGAPGQRVTISCTGSNSNIGAGYDVHWYQQLPGTVPKLLIYGNNNRPSGVPDRFSGSKSGTSASLAITGLQAEDEADYYCQSYDSGLTGELFGGGTKLTVL
B2: BD55-818 (protein)
chain 1: QVQLVQSGAEVKKPGSSVKVSCKASGGTFSSYAISWVRQAPGQGLEWMGRIIPMLGIADYAQKFQGRVTITADKSTRAYMELSSLRSEDTAVYYCARVGNDYGANSEWFDPWGQGTLVTVSS
chain 2: QSLLTQPPSVSGAPGQRVTISCTGSSSNIGAGYDVHWYQQLPGIAPKLLIYGNSNRPSGVPDRFSGSKSGTSASLAITGLQAEDEADYYCQSYDSSLSGVVFGGGTKLTVL
B3: BD55-81 (protein)
chain 1: EVQLVQSGAEVKKPGESLNISCKGSGYTFTTYWIGWVRQMPGKGLEWMGIIYPGDSNTRYSPSFQGQVTISADKSISTAYLQWSSLKASDTAMYYCARHRIRFLPNDGFDVWGQGTMVTVSS
chain 2: QSALTQPASVSGSPGQSITISCTGASIGVGGYKFVSWYQQHPGKAPKLMIYDVNNRPSGVSNRFSGSKSGSTASLTISGLQAEDEADYYCSSYTSTTKHFGGGTKLTVL
B4: BD-695 (protein)
chain 1: EVQLVESGGGLVQPGKSLRLSCAASGFTFDDYAMHWVRQAPGKGLEWISTINWDHGSVDYADSVRGRFTISRDNAKKSLYLQMSSLRAEDTALYYCTKDMGWGGVVTGLGGQFEYWGQGTLVTVSS
chain 2: DIQMTQSPSSLSASVGDRVTITCRASQTISTYLNWYQQKPGKAPKLLIYNAISLQSGVPSRFSGSGSGTDFTLTISSLQPEDFATYYCQQSYSTPRETFGQGTKVEIK
B5: BD-694 (protein)
chain 1: EVQLVESGGGLVKPGGSLRLSCAASGFTFSLAYMSWVRQAPGKGLEWVGRIKSKTEGGTIDYAAPVKGRFTISRDDSRNTLYLQMNSLKTEDTAVYYCTTSIHAREPRPPNAFDIWGQGTMVTVSS
chain 2: QSVLTQPPSVSEAPRQRVTISCSGSSSNIGNNAVNWYQQLPGKAPKLLIYYDDLLPSGVSDRFSGSKSGTSASLAISGLQSEDEADYYCAAWDDSLNGYVFGTGTKVTVL
B6: BD-804 (protein)
chain 1: EVQLVESGGGLVKPGGSLRLSCAASGFTFSNYDMNWVRQAPGKGLEWVSSISSSSTYTHYADSVKGRFTISRDNAKNSLYLQMNSLRAEDTAVYYCARDRAYRLGELSSLWGDDAFDIWGQGTMVTVSS
chain 2: AVWMTQSPSLLSASTGDRVTVSCRMSQDISSYLAWYQQKPGKAPELLIYAAFTLQSGVPSRFSGSGSGTEFTLTISSLQSEDFATYYCQQYYSFPHTFGQGTKLE

Human monoclonal antibodies against the spike receptor-binding domain (heavy:light variable regions). IC50 against pseudoviruses bearing the spike of naturally observed variants; lower = stronger; >10 µg/ml means not reached at the top dose. No active / inactive call. The stated detection limit is 0.0005 µg/ml; values near or below 0.001 µg/ml lie at the floor of the assay.

The target in the first assay is SARS-CoV-2 Omicron BA.1 spike pseudovirus. Nature of the assay: pseudovirus neutralization IC50; higher = weaker neutralization. The protocol: (§1)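 Single-round VSV luciferase pseudovirus mixed with antibody dilutions for 1 h and put on Huh-7 cells for about a day; IC50 from the dose curve.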
For B1, the “pseudovirus neutralization IC50” value stood at 0.168 µg/mL.
The same measure, in the same setting: the same measure for B2: more than 10 µg/mL.
Take B3: the “pseudovirus neutralization IC50” value was more than 10 µg/mL.
As to B4, the “pseudovirus neutralization IC50” value is more than 10 µg/mL.
In the case of B5, the “pseudovirus neutralization IC50” value was more than 10 µg/mL.
As to B6, the “pseudovirus neutralization IC50” value amounted to 0.151 µg/mL.

Another assay addresses SARS-CoV-2 Omicron BA.2 spike pseudovirus. The description is as above. As to the method: as §1
For the molecule B1, the “pseudovirus neutralization IC50” value was determined as 0.11 µg/mL.
For the molecule B2, the “pseudovirus neutralization IC50” value is more than 10 µg/mL.
Still for that read-out and setting: the same measure for B3: more than 10 µg/mL.
The same measure, in the same setting: next, B4: more than 10 µg/mL.
As to B5, the “pseudovirus neutralization IC50” value is more than 10 µg/mL.
On to B6, for which the “pseudovirus neutralization IC50” value was determined as 0.161 µg/mL.

A further assay deals with SARS-CoV-2 Omicron BA.2.75 spike pseudovirus. The description is as above. The protocol:
as §1
As to B1, the “pseudovirus neutralization IC50” value was found to be 0.192 µg/mL.
As to B2, the “pseudovirus neutralization IC50” value is more than 10 µg/mL.
Turning to B3, the “pseudovirus neutralization IC50” value was more than 10 µg/mL.
As to B4, the “pseudovirus neutralization IC50” value was more than 10 µg/mL.
For B5, the “pseudovirus neutralization IC50” value was more than 10 µg/mL.
Still for that read-out and setting: the same measure for B6: 0.264 µg/mL.

The next assay deals with SARS-CoV-2 Omicron BA.5 spike pseudovirus. The assay is described as above. As to the method:
as §1
Turning to B1, the “pseudovirus neutralization IC50” value is more than 10 µg/mL.
Take B2: the “pseudovirus neutralization IC50” value is more than 10 µg/mL.
As to B3, the “pseudovirus neutralization IC50” value was more than 10 µg/mL.
As for B4, the “pseudovirus neutralization IC50” value was more than 10 µg/mL.
Same read-out and setting: next, B5: more than 10 µg/mL; B6: 0.354 µg/mL.

For another assay, the target named is SARS-CoV-2 Omicron BQ.1.1 spike pseudovirus. The assay is described as above. The protocol:
as §1
B1: the “pseudovirus neutralization IC50” value was more than 10 µg/mL.
B2: the “pseudovirus neutralization IC50” value was more than 10 µg/mL.
Consider B3, for which the “pseudovirus neutralization IC50” value was more than 10 µg/mL.
In the case of B4, the “pseudovirus neutralization IC50” value was more than 10 µg/mL.
On to B5, for which the “pseudovirus neutralization IC50” value was more than 10 µg/mL.
Turning to B6, the “pseudovirus neutralization IC50” value is more than 10 µg/mL.

For a further assay, the target named is SARS-CoV-2 Omicron XBB spike pseudovirus. The description is as above. As to the method:
as §1
For B1, the “pseudovirus neutralization IC50” value is more than 10 µg/mL.
On to B2, for which the “pseudovirus neutralization IC50” value is more than 10 µg/mL.
Same read-out and setting: next, B3: more than 10 µg/mL; B4: more than 10 µg/mL.
For the molecule B5, the “pseudovirus neutralization IC50” value is more than 10 µg/mL.
The same measure, in the same setting: next, B6: more than 10 µg/mL.

The next assay deals with SARS-CoV-2 early D614G spike pseudovirus. The assay is described as above. The protocol: as §1
B1: the “pseudovirus neutralization IC50” value amounted to 0.062 µg/mL.
Still for that read-out and setting: next, B2: more than 10 µg/mL; B3: more than 10 µg/mL.
For B4, the “pseudovirus neutralization IC50” value is more than 10 µg/mL.
For B5, the “pseudovirus neutralization IC50” value came out at 0.394 µg/mL.
Take B6: the “pseudovirus neutralization IC50” value was found to be 0.135 µg/mL.
